This note sets out measurements from publication PMC10127594.

Construct, isoform or probe ends are uncertain for at least one entry.

In series [1] the target is T1, Gac (Borrelia burgdorferi sensu stricto B31) (UniProt O51396).
T1 sequence: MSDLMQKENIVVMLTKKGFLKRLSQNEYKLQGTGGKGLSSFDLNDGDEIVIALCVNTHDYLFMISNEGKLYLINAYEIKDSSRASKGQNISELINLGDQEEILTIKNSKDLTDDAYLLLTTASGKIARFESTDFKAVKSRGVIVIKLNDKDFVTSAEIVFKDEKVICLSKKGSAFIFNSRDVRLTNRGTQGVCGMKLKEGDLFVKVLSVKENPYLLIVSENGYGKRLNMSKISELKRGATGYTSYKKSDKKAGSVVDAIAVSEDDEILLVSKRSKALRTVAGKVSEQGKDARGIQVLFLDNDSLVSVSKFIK
Put plainly: EMSA. As to conditions: 10 nM DNA, 25 nM Gac, EMSA: 50 mM Tris-HCl (pH not stated), 25 mM KCl, 10% glycerol, 0.01% Tween 20, 100 nM DTT, 1 mM PMSF, 15 min, room temperature, 10 nM probe, recombinant protein, protein details: C-terminal His (pET101), label: IRDye800 (probe) or unlabeled, probe letters rebuilt from the primers and the genome, part of a longer …. In general terms: In EMSA bound probe runs differently from free probe, usually more slowly.

Series [2] addresses T1, Gac (Borrelia burgdorferi sensu stricto B31). Description: competition with a labelled probe. As to conditions: 10x vs labeled lp17 telomere; EMSA: 50 mM Tris-HCl (pH not stated), 25 mM KCl, 10% glycerol, 0.01% Tween 20, 100 nM DTT, 1 mM PMSF; 15 min, room temperature; 10 nM probe, 25 nM Gac; recombinant protein; protein details: C-terminal His (pET101); label: IRDye800 (probe) or unlabeled; probe letters rebuilt from the primers and the genome; part of a longer ….

For the sequence “CCTCCTTTTTATTTATGAATTATTAGTCCAACAATTTTGTTTTTCAATTTTTTATTTGAAAAAATAATTTTTTCAAATTCTTCAATATCTTGAATAAATATTGAAGAATTTGAAAAATATTGTCTTAATTTGATTTTAAAATCGACATAAGCAAAGCCAAATATGC (double strand) [B31 ospC operator/promoter]”, the binding result in series [1] and in series [2] was “binds” in each case.
